Reference: publication PMC11130183, “Human neutralizing antibodies target a conserved lateral patch on H7N9 hemagglutinin head” (Nature Communications, 2024)

Legend:
[1] = target: soluble recombinant HA ΔTM antigen based on A/Shanghai/2/2013 H7N9 (influenza A virus A/Shanghai/2/2013 …); assay: ELISA; conditions: both partners purified
[2] = target: T1, H7N9 HA1 based on A/Shanghai/2/2013 (influenza A virus A/Shanghai/2/2013 …); assay: ELISA; conditions: both partners purified
T1 construct: source: bought: Immune Technologies (Cat. No. IT-003-0074p)

Binder | binding result [1] | binding result [2]
L4A-14 (antibody, V domains shown) VH: EVQLLESGGGVVQPGRSLRLSCAASGFTFSSYAIHWVRQAPGKGLEWVALISYDGSNKYYADSVKGRFTISRDNSKNTLYLQMNSLRAEDTAVYYCNGHGSGGEVGSNWFDPWGQGTLVTVSS VL: NFMLTQPHSVSESPGKTVTISCTRSSGSIASNYVQWYQQRPGSSPTTVIYEYNQRPSGVPDRFSGSIDSSSNSASLTISGLKTEDEADYYCQSYDSANRVFGGGTKLTVL | binds | binds
H7.167 (antibody, V domains shown) VH: QVQLVQSGGGLVQPGGSLRLSCAASGFNFSSYEMNWVRQAPGKGLEWVSYISSSGSTIYYADSVKGRFTISRDNAKNSLYLQMNSLRAEDTAVYYCRLLWFGELFFDYWGQGTLVTVSS VL: DIVMTQSPDSLAVSLGERATINCKSSQSVLYSSNNKNYLAWYQQKPGQPPKLLIYWASTRESGVPDRFSGSGSGTDFTLTISSLQAEDVAVYYCQQYYSTPGLTFGGGTKVEIK | binds | binds
